Measured values from several laboratories, pooled; numbers as filed in NIAID ChemDB.

All rows: whole-cell or culture tests; species: Mycobacterium tuberculosis

MIC bound comes from a single tested concentration.

structure | read by | strain | tested at | setting | read-out | cell line | result
O=C[C@H](O)[C@@H](O)[C@H](O)[C@H](O)CO | resazurin | H37Rv |  |  | MIC bound |  | >6.25 µg/mL
CCCCCCCCCCCNCCNCc1ccc(F)cc1 |  |  |  |  | MIC |  | 50 µM
C[C@H]1C[C@H](N)CN1c1cc2c(cc1F)c(=O)c(C(=O)O)cn2-c1ccc(F)cc1F |  | ATCC 35826 |  |  | MIC |  | 1 µg/mL
CO[C@H]1/C=C/O[C@@]2(C)Oc3c(C)c(O)c4c(O)c(c5c(c4c3C2=O)NC2(CCN(CC(C)C)CC2)N=5)=NC(=O)/C(C)=C\C=C\[C@H](C)[C@H](O)[C@@H](C)[C@@H](O)[C@@H](C)[C@H](OC(C)=O)[C@@H]1C |  | 31 (rifampin-resistant) |  |  | MBC |  | 0.8 µg/mL
CCOC(=O)Nc1cc(N)c(N)c(N)c1 |  | H37Rv | 12.5 µg/mL |  | inhibition |  | 10%
NCC[C@H](O)C(=O)N[C@@H]1C[C@H](N)[C@@H](O[C@H]2O[C@H](CN)[C@@H](O)[C@H](O)[C@H]2O)[C@H](O)[C@H]1O[C@H]1O[C@H](CO)[C@@H](O)[C@H](N)[C@H]1O |  | 11S |  |  | MIC |  | 2.5 µg/mL
C1=C(CCNCCNCCC2=CCCCC2)CCCC1 |  |  |  |  | MIC |  | 12.5 µM
CCOC(=O)Nc1cc(Cl)c2n[nH]nc2n1 |  | H37Rv |  |  | EC50 |  | >12.5 µg/mL
CC[C@H]1OC(=O)[C@H](C)[C@@H](O[C@H]2C[C@@](C)(OC)[C@@H](O)[C@H](C)O2)[C@H](C)[C@@H](O[C@@H]2O[C@H](C)C[C@H](N(C)C)[C@H]2O)[C@](C)(OC)C[C@@H](C)C(=O)[C@H](C)[C@@H](O)[C@]1(C)O |  | ATCC 35830 |  |  | MBC |  | >8 µg/mL
COc1ccc(CCNCCNCCc2ccc(Cl)cc2Cl)cc1OC |  |  |  |  | MIC |  | 50 µM
NNC(N)=S |  | H37Rv |  |  | MIC |  | 100 µg/mL
COc1cc(O)c(C(=O)/C=C/c2cc(OC)c(OC)c(OC)c2)c(O)c1 |  | H37Rv |  |  | EC50 |  | >12.5 µg/mL
CCCCOc1ccc(C2=CC(=O)C(c3ccc(OCCCC)cc3)=CC2=O)cc1 |  | H37Rv |  |  | MIC |  | >100 µg/mL
CC1CCC(NCCNCCNc2ccccc2)CC1 |  |  |  |  | MIC |  | 50 µM
O=C1CC2C(O)OC(O)C(C1)N2C(=O)OCC(Cl)(Cl)Cl | BACTEC | H37Rv | 12.5 µg/mL |  | inhibition |  | 15%
CC(CNC[C@@H]1CC[C@H]2C[C@@H]1C2(C)C)NC1CCCCCCC1 |  |  |  |  | MIC |  | 25 µM
Cl.O=C(O)CNc1cccc2c(O)cccc12 |  | H37Rv |  |  | MIC |  | >100 µg/mL
Cn1nc2ccc3nccc(NCCNCCCl)c3c2n1 | resazurin | H37Rv |  |  | MIC bound |  | >6.25 µg/mL
Cc1ccc2oc(=S)n(-c3ccc(Br)cc3)c(=S)c2c1 |  | My 331/88 |  | 14 d | MIC |  | 0.5 µM
NCC[C@H](O)C(=O)N[C@@H]1C[C@H](N)[C@@H](O[C@H]2O[C@H](CN)[C@@H](O)[C@H](O)[C@H]2O)[C@H](O)[C@H]1O[C@H]1O[C@H](CO)[C@@H](O)[C@H](N)[C@H]1O |  | TN3605 (W1) |  |  | MIC |  | >256 µg/mL
CCCCC(CC)CN1CN(CC(CC)CCCC)CC(C)(NCCNCC(c2ccccc2)c2ccccc2)C1 |  |  |  |  | MIC |  | 25 µM
COc1ccc(/C=N/NC(=O)CC(=O)N/N=C/c2ccc(OC)cc2)cc1 | BACTEC | H37Rv | 12.5 µg/mL |  | inhibition |  | 7%
COc1cc(C(=O)O)cc(OC)c1OC |  | H37Rv |  |  | MIC |  | >100 µg/mL
NC1CCN(c2c(F)cc3c(=O)c(C(=O)O)cn(C4CC4)c3c2Cl)C1 |  | DRUG-SUS |  |  | MIC50 |  | 0.125 µg/mL
CC(C)N=c1cc2n(-c3ccc(Cl)cc3)c3ccccc3nc-2cc1Nc1ccc(Cl)cc1 | broth dilution / resazurin | MDR5 |  |  | MIC |  | 0.25 µg/mL
Cn1c([N+](=O)[O-])cnc1COC(=O)N1CCN(C(=O)OCc2ncc([N+](=O)[O-])n2C)CC1 | resazurin | H37Rv |  |  | MIC bound |  | >6.25 µg/mL
Oc1ccc2oc3ccccc3c2c1N=Nc1ccc(C(F)(F)F)cc1 |  | H37Rv |  |  | MIC |  | >100 µg/mL
CO[C@H]1/C=C/O[C@@]2(C)Oc3c(C)c(O)c4c(O)c(c(/C=N/N5CCN(C)CC5)c(O)c4c3C2=O)NC(=O)/C(C)=C\C=C\[C@H](C)[C@H](O)[C@@H](C)[C@@H](O)[C@@H](C)[C@H](OC(C)=O)[C@@H]1C |  | 10S |  |  | MIC |  | 1 µg/mL
C=C1C(=O)OC(C)(C)C1c1ccccc1 | BACTEC | H37Rv |  |  | MIC bound |  | ≤12.5 µg/mL
C1SCSCS1 |  | H37Rv |  |  | MIC |  | >100 µg/mL
CCOC(=O)Nc1cc(N)c([N+](=O)[O-])c(NCCc2ccc(S(C)(=O)=O)cc2)c1 |  | H37Rv | 12.5 µg/mL |  | inhibition |  | 30%
COc1cccc(CNCCNC[C@]2(C)CCC[C@]3(C)c4ccc(C(C)C)cc4CC[C@@H]23)c1OC |  |  |  |  | MIC |  | 25 µM
C/C=C/CSc1cc(NC(=S)c2ccsc2C)ccc1Cl | BACTEC | H37Rv | 6.25 µg/mL |  | inhibition |  | 60%
O=C1c2c(O)cc(O)cc2OC(c2ccc(O)cc2)C1c1c(O[C@@H]2O[C@H](CO)[C@@H](O)[C@H](O)[C@H]2O)cc(O)c2c(=O)cc(-c3ccc(O)cc3)oc12 |  |  |  |  | EC50 |  | >12.5 µg/mL
Nc1c(S(=O)(=O)[O-])cc(Br)c2c1C(=O)c1ccccc1C2=O.[Na+] |  | H37Rv |  |  | MIC |  | >100 µg/mL
COc1ccc(C2Oc3ccc(C(=O)O)cc3C(=O)C2O)cc1 |  | H37Rv | 12.5 µg/mL |  | inhibition |  | 0%
CCCCC1=Nc2c(cc(NC(=O)OCC)nc2N)NC1C |  | H37Rv |  |  | EC50 | VERO | <12.5 µg/mL
NC(=O)C1CCCN1C(=O)/C=C/c1ccccc1 | BACTEC | H37Rv |  |  | MIC bound |  | >12.5 µg/mL
OCc1ccc(I)cc1 |  | H37Rv |  |  | MIC |  | 100 µg/mL
COc1cc2cc3c4cc(OC)c(OC)cc4cc[n+]3c(C)c2cc1OC | BACTEC | H37Rv | 12.5 µg/mL |  | inhibition |  | -1%
Nc1ncccc1/C=C/C(=O)c1cc(Cl)ccc1O |  |  |  |  | EC50 |  | >12.5 µg/mL
CCCCCCCCCCCNCCNC1CCCC(C)C1C |  |  |  |  | MIC |  | 25 µM
C1CC[N+]2(CC1)CCCCC2.NC(=S)[S-] |  | INH-r |  |  | MIC |  | 0.8 µg/mL
Nc1cccc(C(=O)O)c1 |  | H37Rv |  |  | MIC |  | 50 µg/mL
CC(C)=CCC/C(C)=C/CNCCNCCC(c1ccccc1)c1ccccc1 |  |  |  |  | MIC |  | 50 µM
CCOc1ccccc1NC(C)=O |  | H37Rv |  |  | MIC |  | >100 µg/mL
C=CCN(CC=C)CC(=O)Nn1c(C)ccc1C | BACTEC | H37Rv |  |  | MIC bound |  | >12.5 µg/mL
COc1ccc(/C=C/C(=O)c2ccc(OC)cc2O)cc1 |  |  | 12.5 µg/mL |  | inhibition |  | 32%
N#CCC(=O)N=C(N)N |  | H37Rv |  |  | MIC |  | >100 µg/mL
CCCCC(Nc1cc(NC(=O)OCC)nc(N)c1[N+](=O)[O-])C(C)O |  | H37Rv | 12.5 µg/mL |  | inhibition |  | 0%
CC1(C)[C@H]2CC[C@@H](CNCCNCCc3ccccc3Cl)[C@@H]1C2 |  |  |  |  | MIC |  | 50 µM
Cn1c2ccccc2c(=S)c2c(O)cc3c(c21)C=CC(C)(C)O3 | BACTEC | H37Rv | 12.5 µg/mL |  | inhibition |  | -30%
Cc1ccc2oc(=O)n(-c3ccc(Cl)cc3)c(=S)c2c1 |  | My 331/88 |  | 14 d | MIC |  | 0.5 µM
CCC1(c2ccccc2)C(=O)NC(=O)NC1=O |  | H37Rv |  |  | MIC |  | >100 µg/mL
CCOC(=O)C1C(=O)C(=O)N(Cc2ccccc2)C1C(=O)OCC | resazurin | H37Rv |  |  | MIC bound |  | >6.25 µg/mL
CC(Oc1ccc2ccccc2c1)C(=O)O |  | H37Rv |  |  | MIC |  | >100 µg/mL
CNC(=O)c1nc(C)c(CCC(=O)O)nc1NC | BACTEC | H37Rv |  |  | MIC |  | ≥12.5 µg/mL
CO[C@H]1/C=C/O[C@@]2(C)Oc3c(C)c(O)c4c(=O)c(c5oc6cc(N7CCN(C(C)C)CC7)cc(=O)c6nc5c4c3=C2O)NC(=O)/C(C)=C\C=C\[C@H](C)[C@H](O)[C@@H](C)[C@@H](O)[C@@H](C)[C@H](OC(C)=O)[C@@H]1C |  | 3064 (rifampin-sensitive) |  |  | MIC |  | 0.012 µg/mL
COc1c(O)c(O)c2c(c1O)C(=O)c1cc(C)cc(O)c1C2=O | BACTEC | H37Rv | 12.5 µg/mL |  | inhibition |  | 4%
COC(=O)CCCCCCCCC(=O)Nc1ccc(I)cc1I |  | H37Rv |  |  | MIC |  | >100 µg/mL
COc1ccc(C2CC(=O)c3ccc(OC)cc3O2)cc1 |  |  |  |  | EC50 |  | >12.5 µg/mL
CS(=O)(=O)NCCNc1ccc(N)cc1.O=S(=O)(O)O |  | H37Rv |  |  | MIC |  | >100 µg/mL
COc1ccccc1CCNCCNCC12CC3CC(CC(C3)C1)C2 |  |  |  |  | MIC |  | 50 µM
CC(=O)ONc1nc(C)c(CCC2OCCO2)c(=O)[nH]1 | resazurin | H37Rv |  |  | MIC bound |  | >6.25 µg/mL
N#CCCOc1ccccc1 |  | H37Rv |  |  | MIC |  | >100 µg/mL
Cc1c(NC(=S)Nc2ccccc2)c(=O)n(-c2ccccc2)n1C | BACTEC | H37Rv | 12.8 µg/mL |  | inhibition |  | 26%
CCCCCCCCCCCNCCNCC1(O)CCCCC1 |  |  |  |  | MIC |  | 50 µM
CCC(C)(C)c1ccc(Oc2cccc(C(=O)Nc3c(C)cc(C)cc3O)c2)cc1 |  | H37Rv |  |  | MIC |  | >100 µg/mL
O=C1C2=C(c3ccccc31)C(c1ccc(F)cc1)N1C(=O)CCSC1=N2 | BACTEC | H37Rv | 12.5 µg/mL |  | inhibition |  | 0%
Fc1ccc2oc(=S)n(-c3ccc(Br)cc3)c(=S)c2c1 |  | My 331/88 |  | 21 d | MIC |  | 2 µM
CCC/C=c1\[nH]c(=O)/c(=C/c2ccc(OC)cc2)[nH]c1=O | BACTEC | H37Rv |  |  | MIC |  | ≥12.5 µg/mL
CCCCC(CC)CN1CN(CC(CC)CCCC)CC(C)(NCCNCc2ccccc2OCC)C1 |  |  |  |  | MIC |  | 12.5 µM
COc1ccc2oc(=O)n(-c3ccc(C)cc3)c(=S)c2c1 |  | My 331/88 |  | 21 d | MIC |  | 32 µM
Oc1cccc(O)c1 |  | H37Rv |  |  | MIC |  | >100 µg/mL
CC[C@H]1OC(=O)[C@H](C)[C@@H](O[C@H]2C[C@@](C)(OC)[C@@H](O)[C@H](C)O2)[C@H](C)[C@@H](O[C@@H]2O[C@H](C)C[C@H](N(C)C)[C@H]2O)[C@](C)(O)C[C@@H](C)C(=O)[C@H](C)[C@@H](O)[C@]1(C)O |  | ATCC 35828 |  |  | MBC |  | >8 µg/mL
O=C1NCN(CCO)CN1 |  | H37Rv |  |  | MIC |  | >100 µg/mL
NC1CCN(c2nc3c(cc2F)c(=O)c(C(=O)O)cn3-c2ccc(F)cc2F)C1 |  | ATCC 35823 |  |  | MIC |  | >8 µg/mL
COc1ccc2c(c1)OC(c1ccc(Cl)cc1)CC2=O |  | H37Rv | 12.5 µg/mL |  | inhibition |  | 48%
Cc1[nH]c(C(=O)O)c(C)c1C(=O)O |  | H37Rv |  |  | MIC |  | >100 µg/mL
CCN(CC)CCCC(C)Nc1ncnc2ncc3c(c12)CCCC3 | BACTEC | H37Rv | 12.5 µg/mL |  | inhibition |  | 6%
COc1ccc(/C=C/C(=O)c2cc(C(=O)O)ccc2O)cc1 |  | H37Rv | 12.5 µg/mL |  | inhibition |  | 0%

Repeating the first 11 entries:

{"structure": "O=C[C@H](O)[C@@H](O)[C@H](O)[C@H](O)CO", "read by": "resazurin", "strain": "H37Rv", "read-out": "MIC bound", "result": ">6.25 µg/mL"}
{"structure": "CCCCCCCCCCCNCCNCc1ccc(F)cc1", "read-out": "MIC", "result": "50 µM"}
{"structure": "C[C@H]1C[C@H](N)CN1c1cc2c(cc1F)c(=O)c(C(=O)O)cn2-c1ccc(F)cc1F", "strain": "ATCC 35826", "read-out": "MIC", "result": "1 µg/mL"}
{"structure": "CO[C@H]1/C=C/O[C@@]2(C)Oc3c(C)c(O)c4c(O)c(c5c(c4c3C2=O)NC2(CCN(CC(C)C)CC2)N=5)=NC(=O)/C(C)=C\\C=C\\[C@H](C)[C@H](O)[C@@H](C)[C@@H](O)[C@@H](C)[C@H](OC(C)=O)[C@@H]1C", "strain": "31 (rifampin-resistant)", "read-out": "MBC", "result": "0.8 µg/mL"}
{"structure": "CCOC(=O)Nc1cc(N)c(N)c(N)c1", "strain": "H37Rv", "tested at": "12.5 µg/mL", "read-out": "inhibition", "result": "10%"}
{"structure": "NCC[C@H](O)C(=O)N[C@@H]1C[C@H](N)[C@@H](O[C@H]2O[C@H](CN)[C@@H](O)[C@H](O)[C@H]2O)[C@H](O)[C@H]1O[C@H]1O[C@H](CO)[C@@H](O)[C@H](N)[C@H]1O", "strain": "11S", "read-out": "MIC", "result": "2.5 µg/mL"}
{"structure": "C1=C(CCNCCNCCC2=CCCCC2)CCCC1", "read-out": "MIC", "result": "12.5 µM"}
{"structure": "CCOC(=O)Nc1cc(Cl)c2n[nH]nc2n1", "strain": "H37Rv", "read-out": "EC50", "result": ">12.5 µg/mL"}
{"structure": "CC[C@H]1OC(=O)[C@H](C)[C@@H](O[C@H]2C[C@@](C)(OC)[C@@H](O)[C@H](C)O2)[C@H](C)[C@@H](O[C@@H]2O[C@H](C)C[C@H](N(C)C)[C@H]2O)[C@](C)(OC)C[C@@H](C)C(=O)[C@H](C)[C@@H](O)[C@]1(C)O", "strain": "ATCC 35830", "read-out": "MBC", "result": ">8 µg/mL"}
{"structure": "COc1ccc(CCNCCNCCc2ccc(Cl)cc2Cl)cc1OC", "read-out": "MIC", "result": "50 µM"}
{"structure": "NNC(N)=S", "strain": "H37Rv", "read-out": "MIC", "result": "100 µg/mL"}

Lines come from different laboratories, so protocols vary. A number after MIC or MFC names an inhibition level or a share of isolates. Blank or dashed fields: not listed here. ECn is the concentration giving n% inhibition of infection, replication or growth. Inhibition is in % at the dose shown (toxicity tests: loss of growth or viability).